In general, GI50 refers to the concentration that inhibits growth by half. Higher therefore signals lower sensitivity of the cells.

The test system of assay [1] is HT29 human colon carcinoma cell line. The experiment in a line: Alamar blue cytotoxicity assay, HT29 cells. The settings on record: HT29, 48 hour treatment.
Assay [2] has as its system KB human oral epidermoid carcinoma cell line. The experiment in a line: Alamar blue cytotoxicity assay, KB cells. As to conditions: 48 hour treatment. Background: The colour change of resazurin is a common sign of viable cells or microbes.
Assay [3] has as its system PC3 human prostate cancer epithelial cell line. The experiment in a line: Alamar blue cytotoxicity assay, PC3 cells. The settings on record: PC3, 48 hour treatment.
Assay [4] concerns LoVo human colorectal cancer cell line. As to the kind of experiment: Alamar blue cytotoxicity assay, LoVo cells. As to conditions: 48 hour treatment.

As to `COc1ccc(C(=O)O)cc1N(CCCl)CCCl`, the GI50 in assay [1] was at least 1020 µM; in assay [2], 401 µM; in assay [3], 242 µM; in assay [4], 205 µM.

For the origin of these results see US20090092553A1, “MONOCARBOXYLATE TRANSPORTERS EXPRESSED IN CANCER CELLS” (Xenoport,Inc., priority 2003, published 2009).
